Taken from: PubChem BioAssay AID1224833 (University of Georgia, 2016)
The whole screen tested about 12,000 reagents; below is a part drawn at random. About 5,600 of all reagents (46%) count as active. 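Active calls cover z-scores past 1 in both directions, so they include lowered as well as raised rotavirus replication.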

- Screen: 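Human genes whose knock-down alters rotavirus replication in monkey cells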 (primary screen)
- Cell system: monkey MA104 kidney cells
- Reagent: siRNA pool against human genes, 50 nM
- Duration: 48 h knock-down before infection; read 24 h after infection
- Treatment: infection with rotavirus strain RV3 two days after transfection; infectious dose for this stage not given
- Measured: 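Rotavirus antigen per well by fluorescent immunoassay, normalised to non-targeting control wells on each plate and given as a standard z-score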
- Direction: z-score vs non-targeting control: higher = more rotavirus replication than with non-targeting control
- Call rule: In these data the active calls have z-score vs non-targeting control at about -1 or lower, or at about 1 or higher
- Meaning of the calls: active = z-score beyond 1 either way; inactive = z-score within 1 of zero

With knock-down of PUDP the results were z-score vs non-targeting control 0.544; inactive.
With knock-down of MIER1, the record shows z-score vs non-targeting control 0.997; inactive.
Silencing of CYP21A2 gave: z-score vs non-targeting control -3.52; active.
Knock-down of CRACR2A came out at: z-score vs non-targeting control 0.866; inactive.
Depletion of FCHSD2 resulted in: z-score vs non-targeting control -0.566; inactive.
IFT27 scored z-score vs non-targeting control -2.5; active.
ZFPL1 gave z-score vs non-targeting control 0.821; inactive.
PDE8A scored z-score vs non-targeting control 0.655; inactive.
SLC17A3 scored z-score vs non-targeting control -1.06; active.
Against ABCB5, the values are z-score vs non-targeting control -0.623; inactive.
After knock-down of FLRT1, the screen gave z-score vs non-targeting control -0.523; inactive.
TPD52 showed z-score vs non-targeting control 0.518; inactive.
PFN4 showed z-score vs non-targeting control -0.191; inactive.
SLC35E4 scored z-score vs non-targeting control -1.06; active.
Depletion of ANO7 came out at: z-score vs non-targeting control 0.464; inactive.
NECTIN1 gave z-score vs non-targeting control -0.179; inactive.
For ANKH, the values are z-score vs non-targeting control -1.21; active.
With knock-down of MAVS the results were z-score vs non-targeting control -1.35; active.
SUGT1 gave z-score vs non-targeting control -1.08; active.
After knock-down of USP35 the results were z-score vs non-targeting control -1.12; active.
Against ZNF280C, the entry reads z-score vs non-targeting control -1.18; active.
Against SRXN1, the values are z-score vs non-targeting control -1.41; active.
Silencing of PAK1IP1 resulted in: z-score vs non-targeting control 0.257; inactive.
Knock-down of TMEM69 resulted in: z-score vs non-targeting control -2.39; active.
NRXN2 showed z-score vs non-targeting control -0.636; inactive.
Silencing of DMKN gave: z-score vs non-targeting control -0.51; inactive.
Against GARS1 the deposit lists z-score vs non-targeting control -2.98; active.
Depletion of NKAPL resulted in: z-score vs non-targeting control -1.2; active.
CABP4 scored z-score vs non-targeting control 0.631; inactive.
GTF2A1L showed z-score vs non-targeting control -0.749; inactive.
Depletion of ZNF418 came out at: z-score vs non-targeting control -0.61; inactive.
After knock-down of MCM7, the record shows z-score vs non-targeting control -2.08; active.
